This passage reports percent of parent results from paper PMC10878525.

In the assay the target is m9 (UniProt A0A8V0YY01). The note with it: parent: est. 100; read off a plot.

Take “soluble HPRS103-gp85 (CAG-sgp85-Fc) G221A; T226A”: the percent of parent came to 98%.
